This is an account of results in PubChem BioAssay AID686976 (The Scripps Research Institute Molecular Screening Center, 2013).

SMILES strings stand for the structures. The entries are a selection whose mix differs from that of the whole data set. Activity calls are given as the source filed them. Cut-off read from the data, not from the text of the source: active = inhibition above about 30%; inactive = the rest.

In the test the test system is CCHF virus ovarian tumor domain protease (vOTU, L protein). Nature of the test: CCHFV vOTU protease inhibitors, confirmation, biochemical, Pep-AMC substrate, fluorescence (AID 686976). The conditions noted are these: Recombinant CCHFV vOTU, at 11.5 µM, hits give high values.
One may read the inhibition as the drop in the measured response relative to a control, in per cent. For `Nc1cccc2c([As](=O)(O)O)cccc12`, the inhibition was active: 72.1%.

For `Nc1cccc2ccc([As](=O)(O)O)cc12`, the inhibition was inactive: 16.7%.
